PSTVd loop 6 mutant pool in Nicotiana benthamiana

Region: loop 6 of PSTVd (intermediate strain), upper and lower strand joined, each 5' to 3', the first 5 letters being the upper strand, closing pairs included. Wild type: UGACCGCGAG. Varied positions (N): UNNNCGNNNG.

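Three N. benthamiana plants were inoculated with the whole mutant pool. Progeny were sequenced from the inoculated region (day 5), the margin of the inoculated leaf (day 10) and systemic leaves (day 12).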

Values are reads per thousand in the sample; higher means more abundant, 0 means not found.
Each value is the mean of three plants.
"Pool" is the share in the plasmid pool used as inoculum, on the same scale.
The inoculated region was read from the minus strand, the other sites from the plus strand.
Sequences that differ at fixed positions probably stem from PCR or sequencing errors, and defective variants can be carried along by functional ones.

* UUUACGUGGG (pool 0.157) = inoculated region 0.113; leaf margin 0; systemic leaves 0
* UCAUCGAUCG (pool 0.288) = inoculated region 0.0956; leaf margin 0.00920; systemic leaves 0
* UGCCCGGAUG (pool 0.222) = inoculated region 0.0952; leaf margin 0.0184; systemic leaves 0
* UGAGCGUCGG (pool 0.222) = inoculated region 0.0590; leaf margin 0; systemic leaves 0
* UUCGCGCUUG (pool 0.340) = inoculated region 0.0841; leaf margin 0; systemic leaves 0
* UGACCGGCGA (pool 0.0261) = inoculated region 0.0297; leaf margin 0.168; systemic leaves 0.193
* UCUUCGUGUG (pool 0.275) = inoculated region 0.119; leaf margin 0.0169; systemic leaves 0
* UCUCCGACAG (pool 0.131) = inoculated region 0.102; leaf margin 0.00920; systemic leaves 0
* UGUGCGCUUG (pool 0.366) = inoculated region 0.0836; leaf margin 0.0276; systemic leaves 0
* UAAUCGAGUG (pool 0.327) = inoculated region 0.107; leaf margin 0; systemic leaves 0
* UUGCCGGACG (pool 0.131) = inoculated region 0.0655; leaf margin 0; systemic leaves 0
* UUGACUAUGG (pool 0.0131) = inoculated region 0; leaf margin 0; systemic leaves 0
* UCAUCUGUCC (pool 0.0131) = inoculated region 0; leaf margin 0; systemic leaves 0
* UCAGCGUAGG (pool 0.327) = inoculated region 0.0592; leaf margin 0.00920; systemic leaves 0
* UUCACGGGUG (pool 0.248) = inoculated region 0.0832; leaf margin 0.00920; systemic leaves 0.0128
* UGCACGAGUG (pool 0.222) = inoculated region 0.0483; leaf margin 0; systemic leaves 0
* UCUUCGUAGG (pool 0.170) = inoculated region 0.0899; leaf margin 0; systemic leaves 0
* UAAACGAGUG (pool 0.157) = inoculated region 0.632; leaf margin 0.00920; systemic leaves 0.0202
* UCGGCGCCUG (pool 0.327) = inoculated region 0.102; leaf margin 0.0330; systemic leaves 0
* UGAACGAACG (pool 0.144) = inoculated region 0.132; leaf margin 0.0416; systemic leaves 0
* UAGUCGUACG (pool 0.170) = inoculated region 0.0891; leaf margin 0.0184; systemic leaves 0
* UGUCCGCCCG (pool 0.248) = inoculated region 0.0949; leaf margin 0; systemic leaves 0
* UCCUCGCCUG (pool 0.196) = inoculated region 0.101; leaf margin 0.0169; systemic leaves 0
* UUCGCGGCAG (pool 0.144) = inoculated region 0.0778; leaf margin 0; systemic leaves 0
* UGUACGCAGG (pool 0.248) = inoculated region 0.131; leaf margin 0; systemic leaves 0
* UCGCCGAAAG (pool 0.0654) = inoculated region 0.133; leaf margin 0.0261; systemic leaves 0
* UGCUCGCGAG (pool 0.157) = inoculated region 0.263; leaf margin 0.0537; systemic leaves 0.266
* UGUGCGCCCG (pool 0.248) = inoculated region 0.0713; leaf margin 0; systemic leaves 0
* UUCGCGUGUG (pool 0.235) = inoculated region 0.0723; leaf margin 0.0155; systemic leaves 0
* UCGUCGCGAG (pool 0.209) = inoculated region 0.144; leaf margin 0.129; systemic leaves 0.0137
* UAUGCGAGAG (pool 0.144) = inoculated region 0.0957; leaf margin 0.0247; systemic leaves 0
* UCCUCGUGAG (pool 0.301) = inoculated region 0.0837; leaf margin 0.00773; systemic leaves 0

The opening 2 entries, copied out:

sequence,pool,inoculated region,leaf margin,systemic leaves
UUUACGUGGG,0.157,0.113,0,0
UCAUCGAUCG,0.288,0.0956,0.00920,0

With 36,220-57,551 reads a sample, very low values are single reads.
Wild type was 20.7 per thousand in the pool and the most common sequence in every sample (inoculated region 195, 198, 203; leaf margin 629, 591, 734; systemic leaves 942, 870, 868).

Source: Wu et al. 2024 (doi:10.1371/journal.ppat.1012142), supplementary data.